Like-named read-outs stand apart in the source and are kept apart here.
Biological target: full-length hepatitis C viral protein NS3•4A (Hepatitis C virus genotype 1a, UniProt P27958)
Assay: HCV NS3 Peptide Cleavage Assay (Enzyme Assay 2), apparent Ki
From the text: Using standard recombinant DNA techniques, a cDNA fragment encoding the sequence for NS3 and NS4A, residues Ala1027 to Cys1711 from the HCV sub-type strain 1a, containing an N-terminal hexa-histidine sequence, was cloned into the baculoviral transfer vector pVL1392 (Webb N R and Summers M D (1990) Expression of proteins using recombinant baculoviruses, Techniques 2:173-188). […] The transfected insect cells containing recombinant baculovirus clones were subsequently isolated by plaque purification. High-titer clonal baculovirus was routinely used to infect SD insect cells for protein production. In production, Sf9 cells were grown at 27° C. until they reached a density of 2.0×10^6 cells/ml. At this point, the insect cells were infected with virus. After 72 hours or when the cell viability was between 70-80% the culture was harvested and the cells were ready for purification. The NS3•4A protein (SEQ ID NO:1) was purified as follows. Cell paste was thawed in at least five volumes of Lysis Buffer (50 mM Na2HPO4 pH 8.0, 10% Glycerol, 300 mM NaCl, 5 mM β-mercaptoethanol, 0.2 mM PMSF, 2.5 μg/ml Leupeptin, 1.0 μg/mlE64, 2.0 μg/ml Pepstatin) per gram of cell paste. The cell paste was then homogenized on ice using a Dounce homogenizer. The cells were next mechanically disrupted by passing once through a microfluidizer (Microfluidics Corporation, Newton, Mass.), and the cell lysate was collected on ice. The cell lysates was centrifuged at 100,000×g for 30 minutes at 4° C. and the supernatants were decanted. Optionally, the pellets were resuspended in wash buffer (Lysis Buffer+0.1% β-octyl glucopyranoside), homogenized using a Dounce homogenizer and centrifuged at 100,000×g for 30 minutes at 4° C. Insoluble NS3° 4A was extracted from the pellets by resuspending in Extraction Buffer (Lysis Buffer+0.5% lauryl maltoside) using 2.5 ml/g cell paste. The mixture was homogenized using a Dounce homogenizer and mixed at 4° C. for three hours or more. The mixture was centrifuged at 100,000×g for 30 minutes at 4° C. The supernatants were decanted and pooled. The NS3•4A protein was further purified using Nickel-NTA metal affinity chromatography. Imidazole from a 2 M stock, pH 8.0, solution was added to the pooled supernatants so that the final concentration of imidazole was 10 mM. The supernatants were incubated batchwise overnight at 4° C. with Nickel-NTA affinity resin that had been pre-equilibrated with Lysis Buffer+10 mM imidazole. 1 ml of resin per 5 μg of expected NS3-4A was used. The resin was next settled by gravity or by centrifugation at 500×g for five minutes. The resin was next poured into a gravity flow column and washed with 10 or more column volumes of Nickel Wash Buffer (Lysis Buffer+0.1% lauryl maltoside+10 mM imidazole). The column was next eluted with three to four column volumes of Nickel Elution Buffer (Nickel Wash Buffer+300 mM imidazole). The elution fractions were collected on ice and evaluated using SDS-PAGE. To prevent NS3-4A proteolysis, 100 μM DFP protease inhibitor was added to gel samples before adding SDS sample buffer and boiling. The peak fractions were pooled and protein concentration was determined by measuring absorbance at 280 ηm and by dividing by the extinction coefficient (e), which for NS3•4A is 1.01. The NS3•4A was purified further using gel filtration chromatography. A Superdex 200 26/60 column was equilibrated with Superdex Buffer (20 mM HEPES pH 8.0, 10% glycerol, 300 mM NaCl, 10 mM β-mercaptoethanol, 0.05% lauryl maltoside) at a rate of 3 ml/min. The nickel purified NS3•4A was concentrated in a Centriprep 30 to greater than 2 mg/ml, if necessary, and was filtered through a 0.2 μm syringe filter and up to 10 ml was loaded onto the Superdex 200 column. After 0.3 column volumes passed through, 4-5 ml fractions were collected. Fractions were evaluated by SDS-PAGE. NS3•4A protein elutes in two peaks. Peak 1 contains aggregated NS3•4A and peak 2 contains active protein. The fractions of peak 2 were pooled, aliquoted and frozen at −70° C. […]

Protein sequences, listed by entry. Tags and fused reporters are not part of them. Chains listed by the source or under a name are the forms on record and can include a tag or linker. Residues count along the entry.
UniProt P27958, 1658-1711 partner limits assumed: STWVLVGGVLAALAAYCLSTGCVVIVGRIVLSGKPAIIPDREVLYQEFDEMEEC
UniProt P27958, 1027-1711 with tags or gaps with the stated changes: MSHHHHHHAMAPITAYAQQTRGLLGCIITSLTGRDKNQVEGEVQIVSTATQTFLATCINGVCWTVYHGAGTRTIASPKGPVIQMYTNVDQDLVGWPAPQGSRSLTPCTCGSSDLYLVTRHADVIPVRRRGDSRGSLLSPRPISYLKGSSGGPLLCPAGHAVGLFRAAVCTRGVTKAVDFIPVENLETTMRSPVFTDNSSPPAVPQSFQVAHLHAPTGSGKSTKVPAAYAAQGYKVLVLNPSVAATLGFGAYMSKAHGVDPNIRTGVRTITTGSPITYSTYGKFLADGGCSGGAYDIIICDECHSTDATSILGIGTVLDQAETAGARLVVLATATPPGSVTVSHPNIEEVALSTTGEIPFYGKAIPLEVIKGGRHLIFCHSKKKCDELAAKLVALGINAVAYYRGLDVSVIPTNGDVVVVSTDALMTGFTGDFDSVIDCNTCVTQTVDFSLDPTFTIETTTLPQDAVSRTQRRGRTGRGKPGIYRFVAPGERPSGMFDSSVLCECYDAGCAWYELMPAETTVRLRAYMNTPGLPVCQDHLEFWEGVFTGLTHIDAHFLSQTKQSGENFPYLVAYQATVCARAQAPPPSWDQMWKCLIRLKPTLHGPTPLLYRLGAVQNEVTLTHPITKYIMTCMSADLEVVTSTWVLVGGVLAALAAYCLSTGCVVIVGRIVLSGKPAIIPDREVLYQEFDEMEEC

[1] = read-out: Enzyme Assay 2, HCV NS3 Peptide Cleavage Assay, apparent Ki
[2] = read-out: Enzyme Assay 2 (HCV NS3 Peptide Cleavage Assay) activity, apparent Ki class

CCNC(=O)C(=O)[C@H](CC1CC1)NC(=O)[C@@H]1C[C@]2(CC(c3cc(C)c(OC)cc3OC)=NO2)CN1C(=O)[C@@H](NC(=O)[C@@H]1C[C@H]1c1ccccc1)C(C)(C)C
Ki [1]: < 100 nM

CCC[C@H](NC(=O)[C@@H]1C[C@]2(CC(c3cc(Cl)ccc3OC)=NO2)CN1C(=O)[C@@H](NC(=O)OC1CCCC1)C(C)(C)C)C(=O)C(N)=O
Ki [2]: < 100 nM

CCC[C@H](NC(=O)[C@@H]1C[C@]2(CC(c3cc(C)c(OC)c(C)c3)=NO2)CN1C(=O)[C@@H](NC(=O)OC1CCCC1)C(C)(C)C)C(=O)C(=O)NC1CC1
Ki [2]: < 100 nM

CCC[C@H](NC(=O)[C@@H]1C[C@]2(CC(NCc3ccccc3)=NO2)CN1C(=O)[C@@H](NC(=O)OC1CCCC1)C(C)(C)C)C(=O)C(=O)NC1CC1
Ki [1]: < 100 nM

CCC[C@H](NC(=O)[C@@H]1C[C@]2(CC(c3cc(C)c(OCC)c(C)c3)=NO2)CN1C(=O)[C@@H](NC(=O)OC(C)(C)C)C(C)(C)C)C(=O)C(N)=O
Ki [1]: < 100 nM

CCC[C@H](NC(=O)[C@@H]1C[C@]2(CC(c3cc(Cl)c(OC)cc3O)=NO2)CN1C(=O)[C@@H](NC(=O)CC1CCCCC1)C(C)(C)C)C(=O)C(=O)NC1CC1
Ki [1]: < 100 nM

CCC[C@H](NC(=O)[C@@H]1C[C@]2(CC(c3cccc(Cl)c3)=NO2)CN1C(=O)[C@@H](NC(=O)C1(C)CC1)C(C)(C)C)C(=O)C(=O)NC1CC1
Ki [1]: 100 to 500 nM

CCC[C@H](NC(=O)[C@@H]1C[C@]2(CC(c3cc(C)c(OC)c(C)c3)=NO2)CN1C(=O)[C@@H](NC(=O)CC(C)(C)C)C(C)(C)C)C(=O)C(=O)NC
Ki [2]: 100 to 500 nM

CNC(=O)C(=O)[C@H](CC1CC1)NC(=O)[C@@H]1C[C@]2(CC(c3cccc(Cl)c3)=NO2)CN1C(=O)[C@@H](NC(=O)[C@@H]1C[C@@H]1c1ccccc1)C(C)(C)C
Ki [1]: < 100 nM

CNC(=O)C(=O)[C@H](CC1CC1)NC(=O)C1C[C@]2(CC(c3cccc(Cl)c3)=NO2)CN1C(=O)[C@@H](NC(=O)[C@@H]1C[C@H]1c1cccc(F)c1)C(C)(C)C (some centres unmarked)
Ki [1]: < 100 nM

CNC(=O)C(=O)[C@H](CC1CC1)NC(=O)[C@@H]1C[C@]2(CC(c3cccc(Cl)c3)=NO2)CN1C(=O)[C@@H](NC(=O)[C@@H]1C[C@H]1C(C)C)C(C)(C)C
Ki [2]: < 100 nM

CCC[C@H](NC(=O)[C@@H]1C[C@]2(CC(c3cccc(Cl)c3)=NO2)CN1C(=O)[C@@H](NC(=O)c1noc2c1CCCC2)C(C)(C)C)C(=O)C(=O)NC1CC1
Ki [1]: < 100 nM

CCOc1c(C)cc(C2=NO[C@]3(C2)C[C@@H](C(=O)N[C@@H](CC2CC2)C(=O)C(=O)NC)N(C(=O)[C@@H](NC(=O)OC2CCCC2)C(C)(C)C)C3)cc1C
Ki [1]: < 100 nM

CNC(=O)C(=O)[C@H](CC1CC1)NC(=O)[C@@H]1C[C@]2(CC(c3cc(Cl)ccc3OC)=NO2)CN1C(=O)[C@@H](NC(=O)[C@@H]1C[C@H]1c1ccccc1)C(C)(C)C
Ki [1]: < 100 nM

CCC[C@H](NC(=O)[C@@H]1C[C@]2(CC(c3cc(C)c(OC)c(C)c3)=NO2)CN1C(=O)[C@@H](NC(=O)[C@@H]1C[C@H]1c1ccccc1)C(C)(C)C)C(=O)C(=O)NC1CC1
Ki [1]: < 100 nM

CNC(=O)C(=O)[C@H](CC1CC1)NC(=O)[C@@H]1C[C@]2(CC(c3cccc(Cl)c3)=NO2)CN1C(=O)[C@@H](NC(=O)[C@@H]1[C@@H](C=C(C)C)C1(C)C)C(C)(C)C
Ki [1]: 100 to 500 nM

CCC[C@H](NC(=O)[C@@H]1CC2(CC(c3cnc(OC)nc3OC)=NO2)CN1C(=O)[C@@H](NC(=O)OC1CCCC1)C(C)(C)C)C(=O)C(=O)NC (some centres unmarked)
Ki [2]: 100 to 500 nM

CCC[C@@H](NC(=O)[C@@H]1C[C@]2(CC(c3cc(C)c(OCC)c(C)c3)=NO2)CN1C(=O)[C@@H](NC(=O)CC1CCCCC1)C(C)(C)C)C(=O)C(=O)NC1CC1
Ki [1]: 100 to 500 nM

CCC[C@H](NC(=O)[C@@H]1C[C@]2(CC(c3cccc(Cl)c3)=NO2)CN1C(=O)[C@@H](NC(=O)[C@@H]1C[C@H]1CC(C)C)C(C)(C)C)C(=O)C(=O)NC
Ki [1]: < 100 nM

CCC[C@H](NC(=O)[C@@H]1C[C@]2(CC(c3cccc(N)c3)=NO2)CN1C(=O)[C@@H](NC(=O)CC1CCCCC1)C(C)(C)C)C(=O)C(=O)NC1CC1
Ki [2]: 100 to 500 nM

CNC(=O)C(=O)[C@H](CC1CC1)NC(=O)[C@@H]1C[C@]2(CC(c3cc(C)c(OC)cc3OC)=NO2)CN1C(=O)[C@@H](NC(=O)[C@@H]1C[C@H]1c1ccccc1)C(C)(C)C
Ki [1]: < 100 nM

CNC(=O)C(=O)[C@H](CC1CC1)NC(=O)[C@@H]1C[C@]2(CC(c3cccc(Cl)c3)=NO2)CN1C(=O)[C@@H](NC(=O)[C@@H]1C[C@H]1C1CCCCC1)C(C)(C)C
Ki [1]: < 100 nM

COc1c(C)cc(C2=NO[C@]3(C2)C[C@@H](C(=O)N[C@@H](CC2CC2)C(=O)C(N)=O)N(C(=O)[C@@H](NC(=O)[C@H]2C[C@@H]2c2ccccc2)C(C)(C)C)C3)cc1Cl
Ki [2]: < 100 nM

CCC[C@H](NC(=O)[C@@H]1C[C@]2(CC(c3cc(Cl)c4c(c3)OCCO4)=NO2)CN1C(=O)[C@@H](NC(=O)CC1CCCCC1)C(C)(C)C)C(=O)C(=O)NC1CC1
Ki [2]: < 100 nM

CCC[C@H](NC(=O)[C@@H]1C[C@]2(CC(c3cc(C)c(OC)c(C)c3)=NO2)CN1C(=O)[C@@H](NC(=O)[C@@H]1C[C@H]1c1ccccc1)C(C)(C)OC)C(=O)C(=O)NC1CC1
Ki [1]: < 100 nM

CCC[C@H](NC(=O)[C@@H]1C[C@]2(CC(c3cc(C)c(OC)c(C)c3)=NO2)CN1C(=O)[C@@H](NC(=O)CC1CCCCCC1)C(C)(C)C)C(=O)C(=O)NC
Ki [2]: < 100 nM

CCC[C@H](NC(=O)[C@@H]1C[C@]2(CC(c3cc(Cl)c(OCC)cc3OC)=NO2)CN1C(=O)[C@@H](NC(=O)OC1CCCC1)C(C)(C)C)C(=O)C(=O)NC
Ki [1]: < 100 nM

CCC[C@H](NC(=O)[C@@H]1C[C@]2(CC(c3cc(Cl)c(OC)cc3OC)=NO2)CN1C(=O)[C@@H](NC(=O)OC(C)(C)C)C(C)(C)C)C(=O)C(=O)NC
Ki [2]: < 100 nM

CCC[C@H](NC(=O)[C@@H]1C[C@]2(CC(c3cc(Cl)ccc3OC)=NO2)CN1C(=O)[C@@H](NC(=O)OC(C)(C)C)C(C)(C)C)C(=O)C(N)=O
Ki [2]: < 100 nM

CCC[C@H](NC(=O)[C@@H]1C[C@]2(CC(c3cccc(Cl)c3)=NO2)CN1C(=O)[C@@H](NC(=O)CC1CCCCC1)C(C)(C)C)C(=O)C(=O)NCC(F)(F)F
Ki [1]: 100 to 500 nM

CCNC(=O)C(=O)[C@H](CC1CC1)NC(=O)[C@@H]1C[C@]2(CC(c3cc(C)c(OC)cc3OC)=NO2)CN1C(=O)[C@@H](NC(=O)CC1CCCCC1)C(C)(C)C
Ki [1]: < 100 nM

CCC[C@H](NC(=O)[C@@H]1C[C@]2(CC(c3cc(C)c(OC)c(C)c3)=NO2)CN1C(=O)[C@@H](NC(=O)[C@@H]1C[C@H]1C(C)C)C(C)(C)C)C(=O)C(=O)NC1CC1
Ki [1]: < 100 nM

CNC(=O)C(=O)[C@H](CC1CC1)NC(=O)[C@@H]1C[C@]2(CC(c3cccc(Cl)c3)=NO2)CN1C(=O)[C@@H](NC(=O)[C@H]1C[C@@H]1C1CCCCC1)C(C)(C)C
Ki [1]: 100 to 500 nM

COc1cc(OC)c(C2=NO[C@]3(C2)C[C@@H](C(=O)N[C@@H](CC2CC2)C(=O)C(N)=O)N(C(=O)[C@@H](NC(=O)[C@@H]2C[C@H]2c2ccccc2)C(C)(C)C)C3)cc1Cl
Ki [1]: < 100 nM

CNC(=O)C(=O)[C@H](CC1CC1)NC(=O)[C@@H]1C[C@]2(CC(c3cc(Cl)c(OC)cc3OC)=NO2)CN1C(=O)[C@@H](NC(=O)C1CC1)C(C)(C)C
Ki [1]: < 100 nM

CCC[C@H](NC(=O)[C@@H]1C[C@]2(CC(c3cc(Cl)c(OC)cc3OC)=NO2)CN1C(=O)[C@@H](NC(=O)[C@@H]1C[C@H]1c1ccccc1)C(C)(C)C)C(=O)C(=O)NC1CC1
Ki [1]: < 100 nM

CCC[C@H](NC(=O)[C@@H]1C[C@]2(CC(c3cc(C)c(OC)c(C)c3)=NO2)CN1C(=O)[C@@H](NC(=O)CC1CCC(O)CC1)C(C)(C)C)C(=O)C(=O)NC1CC1 (some centres unmarked)
Ki [1]: < 100 nM

CNC(=O)C(=O)[C@H](CC1CC1)NC(=O)[C@@H]1C[C@]2(CC(c3cccc(Cl)c3)=NO2)CN1C(=O)[C@@H](NC(=O)[C@H]1CC12CCOCC2)C(C)(C)C
Ki [1]: < 100 nM

— patent publication US7964624B1, “Inhibitors of serine proteases” (priority 2005, dated 2011)
